How the values were obtained:
histamine H4 receptor [1] = target: T1, histamine H4 receptor (Homo sapiens, UniProt Q9H3N8); assay: H4 binding, method 2 ([3H]-histamine binding with Ysi WGA beads on CHO cell membranes); conditions: Ki calculated from IC50 (Cheng-Prussoff)
T1 construct: expressed in transfected cells; host or cells: CHO cells
Method: (§1) Cell pellets from CHO cells expressing the histamine H4 receptor were homogenised in ice-cold 50 mM Tris-HCl/0.5 mM CaCl2 buffer containing a protease inhibitor cocktail (Roche®, United Kingdom) using a ground glass homogeniser. Homogenates were centrifuged at 48000 g for 30 min at 4° C. The membrane pellet was resuspended in fresh buffer and the centrifugation step was repeated as described above. The membrane pellet was resuspended in 50 mM Tris-HCl in the same volume as the original cell pellet. Aliquots of membrane preparations were stored at −80° C. and were used for [^3H]-Histamine binding experiments.
Cell membranes (15 μg/well) were pre-incubated for 120 min shaking at 4° C. with Ysi WGA beads (250 μg/well) in 50 mM Tris-HCl (pH 7.4) followed by centrifugation at 1500 rpm for 5 minutes and resuspension in 50 mM Tris-HCl (pH 7.4). The membrane/bead mixture (15 μg membrane/250 μg beads well) was incubated for 90 minutes shaking at room temperature with 6.5 nM [2,5-^3H] Histamine dihydrochloride (30-60 Ci/mmol) in 50 mM Tris-HCl (pH 7.4), with or without competing H4 ligands. Non-specific binding was defined with 10 μM JNJ7777120. Bound radiolabel was determined using scintillation counting techniques after 90 minutes.

By UniProt entry, the sequences of proteins in these tests, tags left out. Where a name states a change or a piece, a line headed by the entry shows the natural chain unless it says otherwise.
UniProt Q9H3N8: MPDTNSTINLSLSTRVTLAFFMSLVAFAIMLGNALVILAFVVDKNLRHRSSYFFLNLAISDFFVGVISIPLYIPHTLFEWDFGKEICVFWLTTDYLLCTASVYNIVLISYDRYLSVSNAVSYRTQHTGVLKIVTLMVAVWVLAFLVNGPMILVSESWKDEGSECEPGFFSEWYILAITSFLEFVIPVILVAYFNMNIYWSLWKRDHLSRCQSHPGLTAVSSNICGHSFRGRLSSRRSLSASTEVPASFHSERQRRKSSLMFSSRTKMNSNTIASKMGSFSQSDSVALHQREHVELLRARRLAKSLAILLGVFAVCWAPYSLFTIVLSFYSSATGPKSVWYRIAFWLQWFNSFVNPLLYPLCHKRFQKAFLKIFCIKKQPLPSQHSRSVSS

histamine H4 receptor [2] = target: T1, histamine H4 receptor; assay: H4 binding, method 1 ([3H]-histamine filtration binding on CHO cell membranes); conditions: Ki calculated from IC50 (Cheng-Prussoff)
Method: as §1
Cell membranes (20-35 μg/well) were incubated for 90 minutes shaking at room temperature with 3 nM [2,5-^3H]Histamine dihydrochloride (30-60 Ci/mmol) in 50 mM Tris-HCl (pH 7.4), with or without competing H4 ligands. The reaction was terminated by rapid filtration through 0.5% polyethylenimine-soaked Unifilter GF/B plates (Packard) followed by three washes with 1 ml ice-cold 50 mM Tris-HCl. Filters were dried for 45 min at 45° C. and bound radiolabel was determined using scintillation counting techniques. Non-specific binding was defined with 10 μM JNJ7777120.
The compounds of the Examples have been tested in the H4 binding assay described above using either method 1 or method 2.

Molecule CN[C@@H]1CCN(c2cc(NCC(C)C)nc(N)n2)C1 [Example 10, N^4-Isobutyl-6-[(3R)-3-(methyl-amino)pyrrolidin-1-yl]pyrimidine-2,4-diamine] has a Ki (histamine H4 receptor [1]) of 4.11 nM and a Ki (histamine H4 receptor [2]) of 2.85 nM.
